# Data: patent US20230340081A1 (Hoffmann-La Roche, published 2023)
# B1: Bv6.172 (antibody)
# heavy: EVQLVQSGAAVRKPGESLRISCQASGFSFTNYWITWVRQRPGKGLEWMGRIDTRDSYTNYSPSFQGHVTISIDRSINTAYLQWSSLKASDTAMYYCARLSTTYPLNYYGMDVWGQGTTVTVSSASTKGPSVFPLAPSSKSTSGGTAALGCLVKDYFPEPVTVSWNSGALTSGVHTFPAVLQSSGLYSLSSVVTVPSSSLGTQTYICNVNHKPSNTKVDKRV[human IgG1 Fc not spelt out]
# light: QSVLTQPPSVSGTPGQRVTISCTGSSSNIGANYDVNWYQQLPGTAPKVLIYGNTNRPSGVPDRFSGSKSGTSASLAITGLQAEDEADYYCQSYDTSLSGWVFGGGTKLTVLGQPKAAPSVTLFPPSSEELQANKATLVCLISDFYPGAVTVAWKADSSPVKAGVETTTPSKQSNNKYAASSYLSLTPEQWKSHRSYSCQVTHEGSTVEKTVAPTECS
# Legend:
# Experiment in all cases: flow cytometry, S-HBs-transfected 293-F cells
# [1] = target: genotype D S-HBs mutant protein T126A (hepatitis B virus genotype D)
# [2] = target: genotype D S-HBs mutant protein M133T (hepatitis B virus genotype D)
# [3] = target: genotype D S-HBs mutant protein Y134V (hepatitis B virus genotype D)
# [4] = target: genotype D S-HBs mutant protein G145R (hepatitis B virus genotype D)
# [5] = target: genotype D S-HBs mutant protein N146S (hepatitis B virus genotype D)
binder,measurement,setting,value
B1,% of bound S-HBs-expressing cells,[1],75%
same,% of bound S-HBs-expressing cells,[2],71%
same,% of bound S-HBs-expressing cells,[3],69%
same,% of bound S-HBs-expressing cells,[4],24%
same,% of bound S-HBs-expressing cells,[5],77%
